Experimental findings from paper PMC9780535 are described below.

The target of this series is EnvR (UniProt Q5BQ43). Put plainly: EMSA. Particulars: EnvR 0.8 mg/mL, DNA 1.5-15 ng/uL, binding buffer, pH and temperature not stated, recombinant protein, label: unlabelled, SYBR green post-stain, probe letters rebuilt from the primers and the genome.

Construct, isoform or probe ends are uncertain for at least one entry.

For “TCCCAGATCTCACTGAATAAATCCGACTTATTTTTGAAATGCCAATAGATTGCGCCGCGCGTCACGCCAGCAGCGTTCGCAATCTCCGCCAGCGAGGTTGCCGATACGCCTTGCTGCGAGAACAAACGCAGGGCCACATCCAGGATGTGTTGTCGTGTCTCCAGCGCTTGTTGTTTGGTTTTTCGTGCCATATGTCGGTGAATTTACAGGCGTTAGATTTACATACATTTATGGATGTATGTACCATAGCACGACGATAATATAAACGCAGCAATGGGTTTAAGGACCTTTGACCATTGA (double strand) [acrAB promoter WT]”, the binding result is reported as “binds”.
